Assay [1] concerns L. monocytogenes, E. coli O157:H7 and S. montevideo. The note with it: vapor generated by 400 μl AITC after 4 and 2 days; cited from earlier work.
The test system of a further assay is E. coli O157:H7. As to the kind of experiment: Diffusion technique, inhibition zone on agar. The note with it: 1:10 dilution of aqueous hibiscus extract, 10 μL on plate, 35±1° C., 24 h.

Consider `C=CCN=C=S` [AITC], for which the decrease on lettuce in assay [1] was 8 Log.
For the compound penicillin, the Inhibition diameter with E. coli O157:H7 was 15 mm.

(Values after patent US11229224B2, “Phytochemical compositions used as disinfectants and food preservatives” (priority 2012, dated 2022).)
